The entries are a selection whose mix differs from that of the whole data set. Activity calls are given as the source filed them. Cut-off read from the data, not from the text of the source: active = inhibition above about 21% (passing the limit was not always enough); inactive = the rest.
These molecules were tested against 1,4-dihydroxy-2-naphthoyl-CoA synthase (Mycobacterium tuberculosis (strain ATCC 25618 / H37Rv)) (UniProt P9WNP5) (assay: M. tuberculosis MenB inhibitors, primary screen, biochemical, absorbance (AID 540299)). Conditions: MenB enzyme assay, absorbance read-out; stronger effect = higher value; concentration not given here.

Chains of the proteins cited; added tags and fusions are not shown.
UniProt P9WNP5, whole entry: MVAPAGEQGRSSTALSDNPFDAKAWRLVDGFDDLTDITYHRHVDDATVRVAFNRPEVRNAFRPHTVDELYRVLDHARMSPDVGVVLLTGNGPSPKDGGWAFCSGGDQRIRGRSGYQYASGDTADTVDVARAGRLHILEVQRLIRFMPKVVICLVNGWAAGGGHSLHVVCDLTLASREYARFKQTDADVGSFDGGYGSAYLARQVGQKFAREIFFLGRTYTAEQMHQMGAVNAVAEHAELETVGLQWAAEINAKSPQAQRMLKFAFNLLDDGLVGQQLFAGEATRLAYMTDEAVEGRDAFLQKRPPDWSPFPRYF

**Q.** With `O=c1[nH]c2ccccc2n1C1CCN(CCCC(c2ccc(F)cc2)c2ccc(F)cc2Cl)CC1` (stereo not drawn) as the molecule, how does the inhibition read?
**A.** Its inhibition is inactive: -15.8%.

**Q.** Which inhibition does the source give for `CC1CN(CCc2ccccc2)C(C)CC1=O` (stereo not drawn) here?
**A.** Its inhibition is inactive: -11%.

**Q.** With `CN(C)c1ccc(C(=O)NCC2(N3CCCCC3)CCCCC2)cc1` as the molecule, how does the inhibition read?
**A.** The inhibition was inactive: -7.14%.

**Q.** `CCN1CCC(Nc2ccc(F)cc2)CC1` was tested. Which inhibition did it give?
**A.** The inhibition was inactive: -22%.

**Q.** With `CCOc1ncccc1C(=O)NCC1(N2CCCCC2)CCCCC1` as the molecule, how does the inhibition read?
**A.** The inhibition was inactive: -29%.

**Q.** How did the inhibition turn out when `O=C(NCC1(N2CCCCC2)CCCCC1)c1n[nH]c2ccccc12` was run?
**A.** The inhibition was inactive: 5.33%.

**Q.** Which inhibition does the source give for `CCOc1ncccc1C(=O)NCC1(N(C)C)CCCCC1` here?
**A.** The inhibition was inactive: -30.8%.

**Q.** Which inhibition does the source give for `CN1CCC(Nc2ccc(F)cc2)CC1` here?
**A.** Its inhibition is inactive: -1.95%.

**Q.** For `O=C1CCN(CCc2ccccc2)CC1`, which inhibition is on record?
**A.** The inhibition was inactive: -6.15%.

**Q.** With `NC(=O)C1(Nc2ccccc2)CCN(Cc2ccccc2)CC1` as the molecule, how does the inhibition read?
**A.** The inhibition was inactive: 3.84%.

**Q.** Which inhibition does the source give for `Cc1c(C(=O)NCC2(N3CCOCC3)CCCCC2)oc2c(Cl)cccc12` here?
**A.** The inhibition was inactive: 3.24%.

**Q.** For `CCCN1CCC(Nc2cc(OC)cc(OC)c2)CC1`, which inhibition is on record?
**A.** Its inhibition is inactive: 5.45%.

**Q.** Which inhibition does the source give for `O=C(NCC1(N2CCOCC2)CCCCC1)c1cc2ccccc2cc1O` here?
**A.** Its inhibition is inactive: -46.5%.

**Q.** How did the inhibition turn out when `CC(C)(C)OC(=O)N1CCC(Nc2ccc(OC(F)(F)F)cc2)CC1` was run?
**A.** Its inhibition is inactive: 2.2%.

**Q.** Which inhibition does the source give for `Cn1nc(C(=O)NCC2(N3CCCCC3)CCCCC2)c2ccccc2c1=O` here?
**A.** Its inhibition is inactive: 7.98%.

**Q.** How did the inhibition turn out when `Cc1ccc(C(=O)NCC2(N(C)C)CCCCC2)o1` was run?
**A.** Its inhibition is inactive: -5.71%.

**Q.** `c1ccc(CN2CCC(Nc3ccc4c(c3)OCO4)CC2)cc1` was tested. Which inhibition did it give?
**A.** The inhibition was inactive: 7.33%.

**Q.** How did the inhibition turn out when `NC(=O)C1(Nc2ccc(F)cc2)CCNCC1` was run?
**A.** The inhibition was inactive: -0.23%.

**Q.** How did the inhibition turn out when `FC(F)(F)Oc1ccc(NC2CCNCC2)cc1` was run?
**A.** The inhibition was inactive: 8.91%.

**Q.** How did the inhibition turn out when `CC1CN(CCc2ccccc2)CCC1=O` (stereo not drawn) was run?
**A.** The inhibition was inactive: -17.9%.

**Q.** For `Cc1cnc(C(=O)NCC2(N3CCCCC3)CCCCC2)cn1`, which inhibition is on record?
**A.** Its inhibition is inactive: -12.1%.

**Q.** `N#CC1(Nc2ccccc2)CCN(Cc2ccccc2)CC1` was tested. Which inhibition did it give?
**A.** Its inhibition is inactive: -3.39%.

**Q.** For `COc1ccc(C(=O)NCC2(N3CCCCC3)CCCCC2)cc1`, which inhibition is on record?
**A.** The inhibition was inactive: -28.1%.

**Q.** `CCCN1CCC(Nc2ccc(OC)c(OC)c2)CC1` was tested. Which inhibition did it give?
**A.** The inhibition was inactive: -10.3%.

**Q.** How did the inhibition turn out when `CCOC(=O)N1CCC(Nc2cccc(C)c2)CC1` was run?
**A.** The inhibition was inactive: -14.5%.

**Q.** `CCOC(=O)N1CCC(Nc2ccc(F)cc2)CC1` was tested. Which inhibition did it give?
**A.** The inhibition was inactive: -10.3%.

**Q.** `O=C1CCN(Cc2ccccc2)CC1` was tested. Which inhibition did it give?
**A.** Its inhibition is inactive: -31.5%.

**Q.** With `O=C(NCC1(N2CCOCC2)CCCCC1)c1ccc2nc[nH]c2c1` as the molecule, how does the inhibition read?
**A.** The inhibition was inactive: -0.58%.

— PubChem BioAssay AID540299 (ICCB-Longwood Screening Facility, Harvard Medical School, 2011)
